# Results from paper PMC2980466.
# Biological target: Protein-L (UniProt Q51918)
# Assay: SPR
row,other [%],Substance
1,81.1,^CPMV2G12HEL (antibody)
2,98.8,^CPMV2G12HL (antibody)
3,92.4,^HT2G12HEL (antibody)
4,102,^HT2G12HL (antibody)
